Reference: ChEMBL document CHEMBL1142214, “Synergistic interaction between phenothiazines and antimicrobial agents against Burkholderia pseudomallei” (2007)

Experiments:
Assay type in all cases: functional
[1] = tested on: Burkholderia pseudomallei; assay: Antimicrobial activity against Burkholderia pseudomallei KHW in presence of 500 uM promazine
[2] = tested on: Burkholderia pseudomallei; assay: Antimicrobial activity against Burkholderia pseudomallei KHW in presence of 250 uM chlorpromazine
[3] = tested on: Burkholderia pseudomallei; assay: Antimicrobial activity against Burkholderia pseudomallei KHW in presence of 1000 uM omeprazole

Measured: MIC

C[C@H]1COc2c(N3CCN(C)CC3)c(F)cc3c(=O)c(C(=O)O)cn1c23.C[C@H]1COc2c(N3CCN(C)CC3)c(F)cc3c(=O)c(C(=O)O)cn1c23.O [LEVOFLOXACIN]
1 µg/mL: [1] | [2] | [3]
